# Potato spindle tuber viroid, loop 15: variant abundance in plants

PSTVd intermediate strain, loop 15: wild type GGAAACCGCUACUAC, pool pattern GGAAACCGNNNNNNC; upper and lower strand joined, each 5' to 3', the first 7 letters being the upper strand, closing pairs included.

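A pool of all variants was put on leaves of three Nicotiana benthamiana plants. Progeny were sequenced from the inoculated region (day 5), the margin of the inoculated leaf (day 10) and systemic leaves (day 12).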

Values are reads per thousand in the sample; higher means more abundant, 0 means not found. Each site shows the three plants. "Pool" is the share in the plasmid pool used as inoculum, on the same scale. The inoculated region was read from the minus strand, the other sites from the plus strand. IR is the inoculated region, LM the leaf margin, Sys the systemic leaves. The authors trace changes outside the varied positions to PCR and sequencing errors or to mutation in the plant; presence does not show that a variant is infectious alone. Samples held 43,870 to 66,106 reads, so the smallest values rest on one or two reads. Wild type was 33.9 per thousand in the pool and the most common sequence in every sample (inoculated region 202, 200, 159; leaf margin 724, 746, 710; systemic leaves 856, 883, 880).

| sequence | pool | IR | LM | Sys |
|---|---|---|---|---|
| GGAAACCGGUCCUAC | 0.288 | 0.393 0.337 0.343 | 0.243 0.0891 0.160 | 0.0161 0.0605 0.137 |
| GGAAACCGGUCCUCC | 0.272 | 0.115 0.0964 0.114 | 0.0162 0 0 | 0.0322 0 0 |
| GGAAACCGGUCCUGC | 0.352 | 0.0983 0.0964 0.0952 | 0 0.0223 0.0200 | 0 0 0 |
| GGAAACCGGUCCUUC | 0.192 | 0.0655 0.129 0.133 | 0.0162 0.0223 0 | 0 0 0 |
| GGAAACCGGUCGAAC | 0.272 | 0.393 0.193 0.381 | 0.0970 0.156 0.160 | 0.0161 0 0 |
| GGAAACCGGUCGACC | 0.224 | 0.180 0.0643 0.0952 | 0 0 0 | 0 0 0 |
| GGAAACCGGUCGAGC | 0.176 | 0.115 0.0321 0.0381 | 0.0323 0 0 | 0 0 0.0228 |
| GGAAACCGGUCGAUC | 0.224 | 0.0819 0.0482 0.0762 | 0.0162 0.0223 0 | 0 0 0 |
| GGAAACCGGUCGCAC | 0.240 | 0.0983 0.0803 0.114 | 0 0 0 | 0 0 0 |
| GGAAACCGGUCGCCC | 0.192 | 0.0983 0.0482 0.0762 | 0 0 0 | 0 0.0151 0 |
| GGAAACCGGUCGCGC | 0.240 | 0.0655 0.129 0.171 | 0 0.0223 0.0200 | 0 0.0151 0 |
| GGAAACCGGUCGCUC | 0.0960 | 0.131 0.0643 0.114 | 0.0162 0 0 | 0 0 0 |
| GGAAACCGGUCGGAC | 0.256 | 0.147 0.0964 0.114 | 0 0 0.0200 | 0.0161 0 0 |
| GGAAACCGGUCGGCC | 0.304 | 0.0164 0.0321 0.152 | 0.0162 0 0.0401 | 0 0 0 |
| GGAAACCGGUCGGGC | 0.336 | 0.0819 0.112 0.0952 | 0.0162 0.0445 0.0200 | 0 0 0 |
| GGAAACCGGUCGGUC | 0.112 | 0.0983 0.0643 0.152 | 0.0162 0 0 | 0 0 0 |
| GGAAACCGGUCGUAC | 0.192 | 0.393 0.289 0.324 | 0.210 0.0891 0.120 | 0.0483 0.0303 0.137 |
| GGAAACCGGUCGUCC | 0.240 | 0.393 0.209 0.286 | 0.226 0.134 0.180 | 0.0322 0 0 |
| GGAAACCGGUCGUGC | 0.240 | 0.360 0.273 0.305 | 0.0970 0.0223 0.100 | 0.0161 0 0 |
| GGAAACCGGUCGUUC | 0.176 | 0.246 0.257 0.514 | 0.129 0.111 0.120 | 0.0322 0.0605 0.137 |
| GGAAACCGGUCUAAC | 0.192 | 0.180 0.0803 0.152 | 0 0 0.0200 | 0.0161 0 0 |
| GGAAACCGGUCUACC | 0.304 | 0.115 0.0803 0.0952 | 0.0162 0 0.0401 | 0 0 0 |
| GGAAACCGGUCUAGC | 0.224 | 0.0655 0.0964 0.0571 | 0.0162 0 0.0200 | 0 0 0 |
| GGAAACCGGUCUAUC | 0.192 | 0.0655 0.161 0.152 | 0 0.0223 0.0401 | 0 0 0 |
| GGAAACCGGUCUCAC | 0.240 | 0.115 0.0482 0.114 | 0.0162 0 0 | 0 0 0 |
| GGAAACCGGUCUCCC | 0.240 | 0.0655 0.0643 0.0381 | 0 0 0 | 0.0161 0 0 |
| GGAAACCGGUCUCGC | 0.320 | 0.0655 0.145 0.0952 | 0.0162 0.0668 0.0200 | 0 0 0 |
| GGAAACCGGUCUCUC | 0.192 | 0.147 0.0643 0.114 | 0 0 0.0401 | 0 0 0 |
| GGAAACCGGUCUGAC | 0.192 | 0.0655 0.112 0.133 | 0 0.0445 0.0401 | 0.0161 0 0 |
| GGAAACCGGUCUGCC | 0.336 | 0.0983 0.129 0.0762 | 0.0162 0 0.0200 | 0.0322 0 0 |
| GGAAACCGGUCUGGC | 0.240 | 0.0983 0.0482 0.0762 | 0 0.0445 0.0401 | 0 0 0.0456 |
| GGAAACCGGUCUGUC | 0.144 | 0.0819 0.0643 0.133 | 0.0162 0 0.0200 | 0 0 0 |
| GGAAACCGGUCUUAC | 0.256 | 0.262 0.337 0.381 | 0.162 0.111 0.100 | 0.0161 0.0454 0.0912 |
| GGAAACCGGUCUUCC | 0.224 | 0.115 0.177 0.0952 | 0.0162 0 0.0601 | 0 0 0 |
| GGAAACCGGUCUUGC | 0.304 | 0.115 0.0803 0.0381 | 0 0 0.0200 | 0 0 0 |
| GGAAACCGGUCUUUC | 0.256 | 0.213 0.289 0.0762 | 0 0.0223 0 | 0 0 0 |
| GGAAACCGGUGAAAC | 0.272 | 0.0655 0.0643 0.0952 | 0.0162 0 0.0200 | 0 0 0 |
| GGAAACCGGUGAACC | 0.256 | 0.0491 0.209 0.0762 | 0 0 0.0200 | 0.0161 0 0 |
| GGAAACCGGUGAAGC | 0.304 | 0.0491 0.112 0.0762 | 0.0162 0.0223 0 | 0 0 0 |
| GGAAACCGGUGAAUC | 0.192 | 0.0655 0.0964 0.152 | 0 0 0.0401 | 0 0 0 |
| GGAAACCGGUGACAC | 0.288 | 0.0491 0.0643 0.0952 | 0 0 0.0200 | 0 0 0 |
| GGAAACCGGUGACCC | 0.128 | 0.0819 0.0964 0.133 | 0 0.0223 0 | 0 0 0 |
| GGAAACCGGUGACGC | 0.176 | 0.0983 0.0643 0.0571 | 0 0 0 | 0 0 0 |
| GGAAACCGGUGACUC | 0.256 | 0.0983 0.0482 0.114 | 0.0162 0 0 | 0.0161 0 0 |
| GGAAACCGGUGAGAC | 0.144 | 0.0491 0.145 0.133 | 0.0162 0 0 | 0 0 0 |
| GGAAACCGGUGAGCC | 0.160 | 0.0819 0.0803 0.114 | 0 0 0.0601 | 0 0 0 |
| GGAAACCGGUGAGGC | 0.288 | 0.0328 0.129 0.0381 | 0 0 0.0200 | 0 0 0 |
| GGAAACCGGUGAGUC | 0.240 | 0.0819 0.0803 0.114 | 0 0 0.0200 | 0 0 0 |
| GGAAACCGGUGAUAC | 0.272 | 0.164 0.0643 0.0762 | 0.0162 0 0 | 0 0 0 |
| GGAAACCGGUGAUCC | 0.208 | 0.0983 0.0803 0.0762 | 0.0162 0.0223 0.0200 | 0 0 0 |
| GGAAACCGGUGAUGC | 0.304 | 0.115 0.0643 0.0571 | 0 0 0.0200 | 0 0 0 |
| GGAAACCGGUGAUUC | 0.192 | 0.0983 0.112 0.133 | 0 0.0223 0.0200 | 0 0 0 |
| GGAAACCGGUGCAAC | 0.272 | 0.164 0.0964 0.133 | 0.0162 0.0223 0 | 0 0 0 |
| GGAAACCGGUGCACC | 0.144 | 0.0655 0.0482 0.0571 | 0 0.0223 0 | 0 0 0 |
| GGAAACCGGUGCAGC | 0.272 | 0.0491 0.129 0.0952 | 0 0 0.0200 | 0 0 0 |
| GGAAACCGGUGCAUC | 0.240 | 0.0819 0.0964 0.0571 | 0 0 0.0200 | 0 0 0 |
| GGAAACCGGUGCCAC | 0.304 | 0.0164 0.0643 0.0952 | 0 0 0 | 0 0 0 |
| GGAAACCGGUGCCCC | 0.208 | 0.0819 0.0964 0.0762 | 0 0 0 | 0.0161 0 0 |
| GGAAACCGGUGCCGC | 0.272 | 0.0819 0.0643 0.114 | 0 0.0223 0.0200 | 0 0 0 |

4 of these entries, quoted again:

GGAAACCGGUGCAUC (pool 0.240): IR 0.0819 0.0964 0.0571; LM 0 0 0.0200; Sys 0 0 0.
GGAAACCGGUGACUC (pool 0.256): IR 0.0983 0.0482 0.114; LM 0.0162 0 0; Sys 0.0161 0 0.
GGAAACCGGUCGCCC (pool 0.192): IR 0.0983 0.0482 0.0762; LM 0 0 0; Sys 0 0.0151 0.
GGAAACCGGUCUCCC (pool 0.240): IR 0.0655 0.0643 0.0381; LM 0 0 0; Sys 0.0161 0 0.

Reference: Wu et al. 2024, doi:10.1371/journal.ppat.1012142.